Measured values from several laboratories, pooled; numbers as filed in NIAID ChemDB.

Common to all: tests in culture; organism: Aspergillus niger; endpoint: MIC

Blank or dashed fields: not listed here. Conditions beyond the fields shown may differ between rows. a–b is a range or a potency band.

{"structure": "CCn1sc(=Nc2cccc(Cl)c2)n(CC)c1=Nc1cccc(Cl)c1", "result": "40–60 µg/mL"}
{"structure": "Cc1nn(-c2ccccc2)c2c1C(c1cccc([N+](=O)[O-])c1)c1c(nc(=S)[nH]c1N)O2", "strain or isolate": "MTCC 282", "result": "1000 µg/mL"}
{"structure": "O=C(CCN1C(=O)S/C(=C\\c2ccccc2Cl)C1=O)Nc1ccccc1[N+](=O)[O-]", "result": "25 µg/mL"}
{"structure": "Fc1cccc(CO/N=C2/c3ccccc3OCC2n2cncn2)c1", "strain or isolate": "ATCC 16401", "result": "16 µg/mL"}
{"structure": "COc1cccc2c1C(=O)c1c(O)c3c(c(O)c1C2=O)C[C@@](O)(C(C)=O)C[C@@H]3O[C@H]1C[C@H](N)[C@H](O)[C@H](C)O1", "strain or isolate": "NCPF 7162", "result": ">100 µM"}
{"structure": "Clc1ccc(CO/N=C2\\c3ccccc3OCC2n2cncn2)c(Cl)c1", "strain or isolate": "ATCC 16401", "result": "2 µg/mL"}
{"structure": "O=C(CCN1C(=O)S/C(=C\\c2ccccc2F)C1=O)Nc1ccccc1", "result": "50 µg/mL"}
{"structure": "O=C1C(Oc2cccc(N3CC(c4nnco4)CC3=O)c2)=C(Oc2cccc(N3CC(c4nnco4)CC3=O)c2)C(=O)c2ccccc21", "strain or isolate": "VCM F-1119", "result": "7.8 µg/mL"}
{"structure": "CC1(C)S[C@@H]2[C@H](NC(=O)Cc3ccccc3)C(=O)N2[C@H]1C(=O)O", "strain or isolate": "ATCC 16404", "result": "200 µg/mL"}
{"structure": "COc1ccc(/C=C2/SC(c3ccccc3)N(NC(=O)c3ccc(-c4ccccc4)cc3)C2=O)cc1", "strain or isolate": "MTCC 8189", "result": "1.56 µg/mL"}
{"structure": "COc1c(CN(C)C)cccc1C1OC(c2ccncc2)=NN1C(C)=Nc1ccccc1Cl", "strain or isolate": "MTCC 8189", "result": "12.5 µg/mL"}
{"structure": "O=C1CCC(c2ccc(Cl)cc2)=NN1Cc1n[nH]c(=S)n1-c1ccc(Br)cc1", "result": "4 µg/mL"}
{"structure": "COc1c(CN(C)C)cccc1C1OC(c2ccncc2)=NN1C(C)=Nc1ccccc1", "strain or isolate": "MTCC 8189", "result": "25 µg/mL"}
{"structure": "CCn1cc(C(=O)O)c(=O)c2cc(F)c(N3CCN(CN4C(=O)C(=Nc5ccc(S(=O)(=O)Nc6ncccn6)cc5)c5cc(Br)ccc54)CC3)cc21", "result": "78.12 µg/mL"}
{"structure": "C=C(C(=O)O[C@H]1C[C@]2(C)[C@H]([C@@H](CO)CC[C@H]2O)[C@H]2OC(=O)C(=C)[C@@H]21)C(O)CO", "strain or isolate": "ATCC 6275", "result": "0.5 µg/mL"}
{"structure": "CC1CCC(C(C)C)C(OC(=O)c2ccc([N+](=O)[O-])cc2[N+](=O)[O-])C1", "result": "8.91 µM"}
{"structure": "O=C(CCN1C(=O)S/C(=C\\c2ccc(Cl)cc2)C1=O)Nc1ccccc1[N+](=O)[O-]", "result": "25 µg/mL"}
{"structure": "Cc1nn(-c2ccccc2)c2c1C(c1ccc(Cl)cc1)C(C#N)=C(N)O2", "strain or isolate": "MTCC 282", "result": ">1000 µg/mL"}
{"structure": "O=C(N/N=C/c1cc([N+](=O)[O-])ccc1O)c1ccc(I)cc1", "strain or isolate": "Strain #2", "result": "0.4 µg/mL"}
{"structure": "c1ccc(CO/N=C2\\c3ccccc3OCC2n2cncn2)cc1", "strain or isolate": "ATCC 16401", "result": "2 µg/mL"}
{"structure": "O=C(c1ccc([N+](=O)[O-])cc1)n1c(-c2ccccc2)nc2ccccc21", "result": "18 µg/mL"}
{"structure": "COc1ccc(-c2cc(-c3ccc(F)cc3)nc(NC(=O)CN3CCOCC3)n2)cc1", "result": "50 µg/mL"}
{"structure": "O=C(O)c1ccccc1-c1nc2ccccc2n1C(=O)c1ccc([N+](=O)[O-])cc1", "result": "16 µg/mL"}
{"structure": "Brc1ccc(CO/N=C2/c3ccccc3OCC2n2cncn2)cc1", "strain or isolate": "ATCC 16401", "result": "16 µg/mL"}
{"structure": "O=C(c1ccc([N+](=O)[O-])cc1)n1c(-c2ccc([N+](=O)[O-])cc2)nc2ccccc21", "result": "18 µg/mL"}
{"structure": "O=C(CCN1C(=O)S/C(=C\\c2ccccc2Br)C1=O)Nc1ccccc1[N+](=O)[O-]", "result": "12.5 µg/mL"}
{"structure": "O=C1CCC(c2ccc(Oc3ccccc3)cc2)=NN1Cc1n[nH]c(=S)n1-c1ccc(Br)cc1", "result": "15 µg/mL"}
{"structure": "Cc1nn(-c2ccccc2)c2c1C(c1ccccc1)c1c(nc(=O)[nH]c1N)O2", "strain or isolate": "MTCC 282", "result": ">1000 µg/mL"}
{"structure": "CCN=C(Nc1cccc(Cl)c1)N(CC)c1nc2cc(Cl)ccc2s1", "result": "60–80 µg/mL"}
{"structure": "O=C(NN1C(=O)/C(=C\\c2ccccc2)SC1c1ccccc1)c1ccc(-c2ccccc2)cc1", "strain or isolate": "MTCC 8189", "result": "6.25 µg/mL"}
{"structure": "Cc1ccc(Cl)c(NC(=O)CCN2C(=O)S/C(=C\\c3cccc(O)c3)C2=O)c1", "result": "25 µg/mL"}
{"structure": "Clc1ccc(CO/N=C2/c3ccccc3OCC2n2cncn2)cc1Cl", "strain or isolate": "ATCC 16401", "result": "4 µg/mL"}
{"structure": "Cc1nn(-c2ccccc2)c2c1C(c1cccc([N+](=O)[O-])c1)C(C#N)=C(N)O2", "strain or isolate": "MTCC 282", "result": "1000 µg/mL"}
{"structure": "CCN=C(Nc1ccc(OC)cc1)N(CC)c1nc2ccc(OC)cc2s1", "result": "60–80 µg/mL"}
{"structure": "COc1ccc(C2=NN(Cc3n[nH]c(=S)n3-c3ccc(Br)cc3)C(=O)CC2)cc1", "result": "12 µg/mL"}
{"structure": "O=C(O)c1ccccc1-c1nc2ccccc2n1C(=O)c1ccccc1Br", "result": "15 µg/mL"}
{"structure": "CSCCC(NCC(=O)Nc1cccc2c1C(=O)c1ccccc1C2=O)C(=O)O", "strain or isolate": "VKM F-1119", "result": "15.6 µg/mL"}
{"structure": "CC1CCC(C(C)C)C(OC(=O)/C=C/c2ccccc2[N+](=O)[O-])C1", "result": "4.68 µM"}
{"structure": "Clc1ccc2c(c1)OCC(n1cnnc1)/C2=N\\OCc1ccccc1", "strain or isolate": "ATCC 16401", "result": "64 µg/mL"}
{"structure": "CCn1cc(C(=O)O)c(=O)c2cc(F)c(N3CCN(CN4C(=O)C(=Nc5ccc(S(=O)(=O)Nc6ncnc(OC)c6OC)cc5)c5cc(Cl)ccc54)CC3)cc21", "result": "39.06 µg/mL"}
{"structure": "O=C1c2c(O)ccc(O)c2C(=O)c2c(NCCNCCO)ccc(NCCNCCO)c21", "strain or isolate": "NCPF 7162", "result": ">100 µM"}
{"structure": "COP(=O)(NC(=O)[C@@H]1CCCN1)OC[C@H]1O[C@@H](n2c(=O)[nH]c3c(N)ncnc32)[C@H](O)[C@@H]1O", "strain or isolate": "JCM 5697", "result": "1 µg/mL"}
{"structure": "O=C1C(Cl)=C(Oc2cccc(N3CC(c4nnco4)CC3=O)c2)C(=O)c2ccccc21", "strain or isolate": "VCM F-1119", "result": "62.5 µg/mL"}
{"structure": "CC1CCC(C(C)C)C(OC(=O)c2cccc(Cl)c2)C1", "result": "10.72 µM"}
{"structure": "Cc1nn(-c2ccccc2)c2c1C(c1ccccc1Cl)c1c(nc(=O)[nH]c1N)O2", "strain or isolate": "MTCC 282", "result": ">1000 µg/mL"}
{"structure": "C[C@H]1N(C(=O)c2ccc(C(F)(F)F)cc2)C[C@@H](O)O[C@@]1(Cn1cncn1)c1ccc(F)cc1F", "strain or isolate": "Isolate 2", "result": ">64 µg/mL"}
{"structure": "COc1ccc(N2COc3c(ccc4ccccc34)C2)cc1", "strain or isolate": "NCIM 545", "result": "25 µg/mL"}
{"structure": "O=C(CCN1C(=O)S/C(=C\\c2ccccc2Br)C1=O)Nc1ccccc1O", "result": "25 µg/mL"}
{"structure": "C=C[C@]1(C)C[C@H](OC(=O)C(=C)C(O)CO)[C@H]2C(=C)C(=O)O[C@@H]2[C@H]1C(=C)CO", "strain or isolate": "ATCC 6275", "result": "0.25 µg/mL"}
{"structure": "CCOc1ccccc1N1COc2c(ccc3ccccc23)C1", "strain or isolate": "NCIM 545", "result": "15 µg/mL"}
{"structure": "O=C(O)CCC(NCC(=O)Nc1cccc2c1C(=O)c1ccccc1C2=O)C(=O)O", "strain or isolate": "VKM F-1119", "result": ">500 µg/mL"}
{"structure": "CCn1cc(C(=O)O)c(=O)c2cc(F)c(N3CCN(CN4C(=O)/C(=N\\c5ncc(Cc6cc(OC)c(OC)c(OC)c6)c(N)n5)c5cc(Cl)ccc54)CC3)cc21", "result": "78.12 µg/mL"}
{"structure": "CC1CCC(C(C)C)C(OC(=O)c2ccc(Br)cc2)C1", "result": "9.12 µM"}
{"structure": "Cc1nn(-c2ccccc2)c2c1C(c1ccccc1)C(C#N)=C(N)O2", "strain or isolate": "MTCC 282", "result": "500 µg/mL"}
{"structure": "O=C(c1ccccc1Br)n1c(-c2ccccc2[N+](=O)[O-])nc2ccccc21", "result": "30 µg/mL"}
{"structure": "CC1CCC(C(C)C)C(OC(=O)/C=C/c2ccccc2)C1", "result": "9.77 µM"}
{"structure": "CCn1cc(C(=O)O)c(=O)c2cc(F)c(N3CCN(CN4C(=O)/C(=N\\c5ncc(Cc6cc(OC)c(OC)c(OC)c6)c(N)n5)c5cc(Br)ccc54)CC3)cc21", "result": "19.53 µg/mL"}
{"structure": "CC1CCC(C(C)C)C(OC(=O)/C=C/c2cccc([N+](=O)[O-])c2)C1", "result": "4.68 µM"}
{"structure": "CCOc1ccc(N2COc3c(ccc4ccccc34)C2)cc1", "strain or isolate": "NCIM 545", "result": "15 µg/mL"}
{"structure": "Cc1nn(-c2ccccc2)c2c1C(c1cccc(Cl)c1)C(C#N)=C(N)O2", "strain or isolate": "MTCC 282", "result": ">1000 µg/mL"}
{"structure": "O=C(c1ccc([N+](=O)[O-])cc1)n1c(-c2ccc(Cl)cc2)nc2ccccc21", "result": "17 µg/mL"}
{"structure": "CCn1sc(=Nc2ccccc2)n(CC)c1=Nc1ccccc1", "result": "80–100 µg/mL"}
{"structure": "O=C1CCC(c2ccc(Br)cc2)=NN1Cc1n[nH]c(=S)n1-c1ccc(Cl)cc1", "result": "7 µg/mL"}
{"structure": "Cc1c(Cl)cccc1NC(=O)CCN1C(=O)S/C(=C\\c2ccc(O)cc2O)C1=O", "result": "50 µg/mL"}
{"structure": "Cc1ccc(C2=NN(Cc3n[nH]c(=S)n3-c3ccc(Cl)cc3)C(=O)CC2)cc1", "result": "5 µg/mL"}
{"structure": "CCN=C(Nc1ccccc1)N(CC)c1nc2ccccc2s1", "result": "100–120 µg/mL"}
{"structure": "O=C1CCC(c2ccccc2)=NN1Cc1n[nH]c(=S)n1-c1ccccc1", "result": "5 µg/mL"}
{"structure": "O=C(NN1C(=O)/C(=C\\c2ccccc2)SC1c1cccc(Br)c1)c1ccc(-c2ccccc2)cc1", "strain or isolate": "MTCC 8189", "result": "6.25 µg/mL"}
{"structure": "O=C(c1ccc([N+](=O)[O-])cc1)n1c(-c2ccc(O)cc2)nc2ccccc21", "result": "17 µg/mL"}
{"structure": "O=C(CNC(CC1C=CC1)C(=O)O)Nc1cccc2c1C(=O)c1ccccc1C2=O", "strain or isolate": "VKM F-1119", "result": "31.2 µg/mL"}
{"structure": "CCn1cc(C(=O)O)c(=O)c2cc(F)c(N3CCNCC3)cc21", "result": "156 µg/mL"}
{"structure": "CN[C@H](CC(C)C)C(=O)N[C@H]1C(=O)N[C@@H](CC(N)=O)C(=O)N[C@H]2C(=O)N[C@H]3C(=O)N[C@H](C(=O)N[C@H](C(=O)O)c4cc(O)cc(O)c4-c4cc3ccc4O)[C@H](O)c3ccc(c(Cl)c3)Oc3cc2cc(c3O[C@@H]2O[C@H](CO)[C@@H](O)[C@H](O)[C@H]2O[C@H]2C[C@](C)(N)[C@H](O)[C@H](C)O2)Oc2ccc(cc2Cl)[C@H]1O", "strain or isolate": "VKM F-1119", "result": "31.2 µg/mL"}
{"structure": "C=C(C(=O)O[C@H]1C[C@]2(C)[C@H]([C@@H](CO)CC[C@H]2O)[C@H]2OC(=O)C(=C)[C@@H]21)C(O)COC(C)=O", "strain or isolate": "ATCC 6275", "result": "0.5 µg/mL"}

For reference, 8 entries again:

structure | strain or isolate | result
O=C1CCC(c2ccccc2)=NN1Cc1n[nH]c(=S)n1-c1ccccc1 |  | 5 µg/mL
O=C1CCC(c2ccc(Cl)cc2)=NN1Cc1n[nH]c(=S)n1-c1ccc(Br)cc1 |  | 4 µg/mL
CCn1cc(C(=O)O)c(=O)c2cc(F)c(N3CCN(CN4C(=O)C(=Nc5ccc(S(=O)(=O)Nc6ncnc(OC)c6OC)cc5)c5cc(Cl)ccc54)CC3)cc21 |  | 39.06 µg/mL
O=C(CCN1C(=O)S/C(=C\c2ccccc2F)C1=O)Nc1ccccc1 |  | 50 µg/mL
CCn1sc(=Nc2ccccc2)n(CC)c1=Nc1ccccc1 |  | 80–100 µg/mL
CCOc1ccccc1N1COc2c(ccc3ccccc23)C1 | NCIM 545 | 15 µg/mL
O=C(c1ccccc1Br)n1c(-c2ccccc2[N+](=O)[O-])nc2ccccc21 |  | 30 µg/mL
CC1CCC(C(C)C)C(OC(=O)c2ccc(Br)cc2)C1 |  | 9.12 µM